{"sequences": {"note": "By UniProt entry, the sequences of proteins in these tests, tags left out.", "UniProt P51681, whole entry": "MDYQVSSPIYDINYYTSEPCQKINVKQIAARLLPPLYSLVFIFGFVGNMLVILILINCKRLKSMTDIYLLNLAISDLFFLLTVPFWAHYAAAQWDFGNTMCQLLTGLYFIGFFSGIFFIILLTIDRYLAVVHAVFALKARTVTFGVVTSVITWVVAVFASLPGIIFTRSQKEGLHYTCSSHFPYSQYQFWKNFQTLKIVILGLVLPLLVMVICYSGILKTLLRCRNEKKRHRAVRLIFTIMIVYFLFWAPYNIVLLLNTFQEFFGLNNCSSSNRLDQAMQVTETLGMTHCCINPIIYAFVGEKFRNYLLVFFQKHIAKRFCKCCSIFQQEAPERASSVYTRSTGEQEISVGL"}, "source": "patent US20090028818A1", "about": "“Heterocyclic antiviral compounds” (Roche Palo Alto LLC, priority 2007, published 2009)", "biological_target": "Human CCR5 receptor (Homo sapiens, UniProt P51681)", "assay": "Human CCR5 receptor-ligand binding assay", "details": "read-out: CCR5 Binding IC50; CHO-Gα16-hCCR5 cells, 125I RANTES radioligand", "text": "Human CCR5 receptor (Genebank ID: 29169292) was cloned into mammalian expression vector, pTarget (Promega). The construct was transfected into CHO-Gα16 cells by using Fugene Reagent (Roche). Clones were selected under antibiotic pressure (G418 and Hygromycin) and sorted 4 times with a fluorescence activates cell sorter and a monoclonal antibody specific for CCR5 receptor (BD Biosciences Pharmigen, Mab 2D7, Cat. No. 555993). The clone with highest expression (100,000 copies per cell) was chosen for the binding assays.\nAdherent cells in […] tissue culture flask (˜90% confluent) were harvested using 1 mM EDTA in PBS (phosphate-buffered saline) without Ca^2+ and Mg^2+. Cells were washed twice with PBS containing no Ca^2+ and Mg^2+. […]\nAfter incubation, the cells were harvested onto GF/C filter plates using Packard cell harvester. […] Plates were dried in oven (70° C.) for 20 min, added with 40 μl scintillation fluid and sealed with Packard TopSeal-A. Packard Top Count was used to measure of the radioactivity for 1 min per well.\nTotal binding was determined with control wells added with radioisotope and buffer and the non-specific binding was determined using an excess cold RANTES to some of the control wells. Specific binding was determined by subtracting the non-specific form total binding. Results are expressed as the percentage of specific ^125I RANTES binding. […]", "note": "Structures were worked out from names or drawings and are uncertain."}
{"smiles": "CNC(=O)N1CCC(CN2C[C@@H](c3ccccc3)N(C3CCN(C4(C)CCN(C(=O)c5c(C)ncnc5C)CC4)CC3)C2=O)CC1", "values": [{"measurement": "IC50", "value": 31.8, "unit": "nM"}]}
